Measurements taken from PubChem BioAssay AID488862 (Broad Institute, 2010).
Only a part is listed here, and it is no random draw. The source made the active and inactive calls. Cut-off read from the data, not from the text of the source: active = inhibition above about 52%; inactive = the rest.

Experiment: inhibition of PrP 5' UTR reporter expression (AID 488862); note: 0 = median of the neutral control wells
Conditions: cell-based PrP 5' UTR mRNA reporter, plate reader; active compounds read high; concentration not given here
In the case of `Cc1cc(C)cc(N(C(=O)c2ccccc2)C2CCN(C(=O)OC(C)(C)C)CC2)c1`, the inhibition is reported as inactive: -19.5%. In the case of `O=C(NCC1(N2CCCCC2)CCCCC1)c1ccc(Cl)nc1`, the inhibition is reported as inactive: -2.76%. In the case of `O=C(NCC1(N2CCOCC2)CCCCC1)c1cc2ccccc2o1`, the inhibition is reported as inactive: -16.4%. For `COc1ccc(Cl)cc1C(=O)NCC1(N2CCOCC2)CCCCC1`, the inhibition was inactive: -9.7%. With `O=C(OC1CN2CCC1CC2)C1c2ccccc2Oc2ccccc21` (configuration not stated) the inhibition was inactive: -30.6%. In the case of `O=C(NCC1(N2CCCCC2)CCCCC1)c1ccc(Cl)s1`, the inhibition is reported as inactive: 8.22%. In the case of `N#CC1(Nc2ccccc2)CCN(Cc2ccccc2)CC1`, the inhibition is reported as inactive: -12.8%. In the case of `CCOC(=O)N1CCC(Nc2ccc(OC)cc2)CC1`, the inhibition is reported as inactive: -12.9%. In the case of `CC(C)(C)OC(=O)N1CCC(N(C(=O)c2ccccc2)c2ccc(F)cc2)CC1`, the inhibition is reported as inactive: -14.4%. For `COc1ccc(C(=O)NCC2(N3CCCCC3)CCCCC2)c(OC)c1OC`, the inhibition was inactive: -0.113%. For `COc1ccc(C(=O)NCC2(N3CCCCC3)CCCCC2)cc1`, the inhibition was inactive: -16.6%. In the case of `O=C(NCC1(N2CCCCC2)CCCCC1)c1cccs1`, the inhibition is reported as inactive: -6.86%. For `O=C(NCC1(N2CCCCC2)CCCCC1)c1ccc(=O)[nH]c1`, the inhibition was inactive: -5.56%. In the case of `Cc1cccc(NC2(C#N)CCN(Cc3ccccc3)CC2)c1`, the inhibition is reported as inactive: -21.4%. With `CSc1ccccc1C(=O)NCC1(N2CCCCC2)CCCCC1` the inhibition was inactive: -11.8%. In the case of `COc1cc(C(=O)NCC2(N(C)C)CCCCC2)ccc1OC(F)F`, the inhibition is reported as inactive: -19.9%. In the case of `CCOC(=O)N1CCC(Nc2cccc(C)c2)CC1`, the inhibition is reported as inactive: -29.5%. In the case of `O=C1CCN(Cc2ccccc2)CC1`, the inhibition is reported as inactive: 19.4%. With `CCOc1ccc(C)cc1CN(CCCl)CCCl` the inhibition was inactive: -9.49%. In the case of `CCOC(=O)N1CCC(Nc2ccc(F)cc2)CC1`, the inhibition is reported as inactive: -6.3%. For `O=C(NCC1(N2CCCCC2)CCCCC1)c1ccc(F)cc1`, the inhibition was inactive: -7.85%. In the case of `O=P1(N(CCCl)CCCl)SCCCS1`, the inhibition is reported as inactive: 1.97%. In the case of `CCCCOc1ccc(C(=O)NCC2(N3CCOCC3)CCCCC2)cc1`, the inhibition is reported as inactive: 1.63%. In the case of `O=C(NCC1(N2CCCCC2)CCCCC1)c1cccc(C(F)(F)F)c1`, the inhibition is reported as inactive: -14%. For `COc1cc(C(=O)NCC2(N3CCCCC3)CCCCC2)ccc1OC(F)F`, the inhibition was inactive: 0.18%. With `O=C(NCC1(N2CCOCC2)CCCCC1)c1cc(=O)[nH]c2ccccc12` the inhibition was inactive: -21.3%. With `CN1CCN(CCOC(=O)C(O)(c2ccccc2)c2ccccc2)CC1` the inhibition was inactive: -29.9%. With `CC(C)c1ccc(C(=O)NCC2(N3CCOCC3)CCCCC2)cc1` the inhibition was inactive: -34.2%. With `COc1ccc(NC2CCN(C(=O)OC(C)(C)C)CC2)cc1` the inhibition was inactive: -58.3%. In the case of `O=C(NCC1(N2CCCCC2)CCCCC1)c1ccc(OC(F)F)cc1`, the inhibition is reported as inactive: -9.2%. For `N#CC1(Nc2ccccc2)CCN(CCc2ccccc2)CC1`, the inhibition was inactive: -8.17%. For `CCN1CCC(Nc2ccc(Cl)cc2)CC1`, the inhibition was inactive: -20.9%. With `O=C(NCC1(N2CCCCC2)CCCCC1)c1cccc([N+](=O)[O-])c1` the inhibition was inactive: -10.2%. For `CSc1ccc(C(=O)NCC2(N3CCOCC3)CCCCC2)cc1`, the inhibition was inactive: -32.8%. For `O=C(NCC1(N2CCCCC2)CCCCC1)c1cncc(Br)c1`, the inhibition was inactive: -7.47%. With `CN1CCC(Nc2cccc(F)c2)CC1` the inhibition was inactive: -1.53%. With `CC(C)c1ccc(NC2CCN(C(=O)OC(C)(C)C)CC2)cc1` the inhibition was inactive: -49.8%. For `CN(C)c1cccc(C(=O)NCC2(N3CCCCC3)CCCCC2)c1`, the inhibition was inactive: -32.4%. For `COc1ccc(CN(CCCl)CCCl)cc1Cl`, the inhibition was inactive: -1.52%. In the case of `O=C(NCC1(N2CCOCC2)CCCCC1)c1cc(F)c(F)cc1Cl`, the inhibition is reported as inactive: -10.5%. With `COc1cc(OC)c(C(=O)NCC2(N(C)C)CCCCC2)cc1OC` the inhibition was inactive: -16.9%. In the case of `CCOC(=O)N1CCC(Nc2ccc(C)cc2)CC1`, the inhibition is reported as inactive: -17.7%. With `N/C(=N\O)c1c(N)no[n+]1[O-]` the inhibition was inactive: -21%. With `O=C(OC1CN2CCC1CC2)C1c2ccccc2C=Cc2ccccc21` (configuration not stated) the inhibition was inactive: -59.3%. With `COc1cc(C(=O)NCC2(N3CCOCC3)CCCCC2)cc(OC)c1C` the inhibition was inactive: -17.6%. With `O=C(NCC1(N2CCOCC2)CCCCC1)c1cc(Br)ccc1Cl` the inhibition was inactive: -14%. For `COc1ccc(C(=O)NCC2(N3CCOCC3)CCCCC2)cc1OC`, the inhibition was inactive: -2.27%. For `CN(C)C1(CNC(=O)c2cccc(C#N)c2)CCCCC1`, the inhibition was inactive: 13.5%. With `Cc1cc(N(CCCl)CCCl)ccc1C=O` the inhibition was inactive: -21.2%. With `CCCN1CCC(Nc2cc(OC)cc(OC)c2)CC1` the inhibition was inactive: 8.9%. For `c1ccc(CN2CCC(Nc3ccccc3)CC2)cc1`, the inhibition was inactive: 1.35%. With `N#Cc1ccc(C(=O)NCC2(N3CCCCC3)CCCCC2)cc1` the inhibition was inactive: 4.28%. For `CC(C)(C)OC(=O)N1CCC(N(C(=O)c2ccccc2)c2ccc(Cl)cc2)CC1`, the inhibition was inactive: -9.8%. For `CCN1CCC(Nc2cccc(F)c2)CC1`, the inhibition was inactive: -13.7%. In the case of `Cc1ccccc1NC1(C#N)CCN(Cc2ccccc2)CC1`, the inhibition is reported as inactive: -16.7%. In the case of `Cn1c(=O)[nH]cc(N(CCCl)CCCl)c1=O`, the inhibition is reported as inactive: -10.8%. With `CN(C)c1ccc(C(=O)NCC2(N3CCCCC3)CCCCC2)cc1` the inhibition was inactive: -18.9%. For `O=C(NCC1(N2CCCCC2)CCCCC1)c1ccco1`, the inhibition was inactive: -9.04%. In the case of `CC(=O)N(c1ccccc1)C1CCNCC1`, the inhibition is reported as inactive: -9.34%. With `COc1cc(OC)cc(C(=O)NCC2(N3CCCCC3)CCCCC2)c1` the inhibition was inactive: -24.1%. For `Fc1ccccc1NC1CCN(Cc2ccccc2)CC1`, the inhibition was inactive: 5.45%. With `Cc1ccc(C(=O)NCC2(N3CCCCC3)CCCCC2)o1` the inhibition was inactive: -5.92%. In the case of `Cc1ccc(NC2(C#N)CCN(Cc3ccccc3)CC2)cc1`, the inhibition is reported as inactive: -2.74%. In the case of `COc1cc(OC)cc(C(=O)NCC2(N3CCOCC3)CCCCC2)c1`, the inhibition is reported as inactive: -13.5%. With `COc1cccc(C(=O)N(c2cc(C)cc(C)c2)C2CCN(C(=O)OC(C)(C)C)CC2)c1` the inhibition was inactive: -23%. With `CCC(CO)(C(=O)OC1CN2CCC1CC2)c1ccccc1` (configuration not stated) the inhibition was inactive: -12.4%. For `CN1CCC(Nc2ccc(Cl)cc2)CC1`, the inhibition was inactive: -0.688%. In the case of `CN1CCC(Nc2ccc(F)c(Cl)c2)CC1`, the inhibition is reported as inactive: -32.3%. For `CCOc1ncccc1C(=O)NCC1(N2CCOCC2)CCCCC1`, the inhibition was inactive: -32.3%. In the case of `O=C(O)C1(Nc2ccccc2)CCN(Cc2ccccc2)CC1`, the inhibition is reported as inactive: -7.03%. For `CC(C)(C)OC(=O)N1CCC(Nc2ccccc2)CC1`, the inhibition was inactive: -9.7%. For `CCCOc1ccc(C(=O)NCC2(N(C)C)CCCCC2)cc1`, the inhibition was inactive: -12.1%.
